Measurements: US20060223055A1 (published 2006)

Tests used:
Assay in all cases: restatement of the GST pull-down and co-immunoprecipitation results
[1] = biological target: HPV16 E2 E39A (pCMV4-16E2 mutant, expressed in C33A cells) (human papillomavirus 16 (HPV16))
[2] = biological target: HPV16 E2 F121A (pCMV4-16E2 mutant, expressed in C33A cells) (human papillomavirus 16 (HPV16))
[3] = biological target: HPV16 E2 Y138A (pCMV4-16E2 mutant, expressed in C33A cells) (human papillomavirus 16 (HPV16))
[4] = biological target: HPV16 E2 Y178A (pCMV4-16E2 mutant, expressed in C33A cells) (human papillomavirus 16 (HPV16))

Measured: binding result

B1: His-Xpress-SV40NLS-HBrd41047-1362 (other)
chain: RHHKSDPYSTGHLREAPSPLMIHSPQMSQFQSLTHQSPPQQNVQPKKQELRAASVVQPQPLVVVKEEKIHSPIIRSEPFSPSLRPEPPKHPESIKAPVHLPQRPEMKPVDVGRPVIRPPEQNAPPPGAPDKDKQKQEPKTPVAPKKDLKIKNMGSWASLVQKHPTTPSSTAKSSSDSFEQFRRAAREKEEREKALKAQAEHAEKEKERLRQERMRSREDEDALEQARRAHEEARRRQEQQQQQRQEQQQQQQQQAAAVAAAATPQAQSSQPQSMLDQQRELARKREQERRRREAMAATIDMNFQSDLLSIFEENLF
notes: also called His-Xpress-SV40NLS-hBrd4-CTD; Xpress-tagged Brd4-CTD
binds: all assays above
